This note sets out measurements from article PMC11556721, “A novel esterase regulates Klebsiella pneumoniae hypermucoviscosity and virulence” (PLOS Pathogens, 2024).

Construct, isoform or probe ends are uncertain for at least one entry.

For the data set, the target named is rOmpR (phosphorylated with acetyl phosphate) (UniProt A6TF28). Briefly: EMSA. As to conditions: 25 mM acetyl phosphate, 1 mM MgCl2, poly(dI-dC), rOmpR 0-1 ug, 50 ng DNA; recombinant protein; label: none (GelRed stain); probe letters rebuilt from the primers and the genome. For orientation: A gel shift assay detects complexes by their altered migration in electrophoresis.

Take “CGCCGAAGCGATCCTGTTTTTTCTCATCATAATATTCCCTTATATAATCATTGGCGTAAATAAAACACGACAACAACCCTATTCCGTGCCGGTGCTAATAGCCGTATCCATACCGTTTGACGTCGCGGCGGCTGTTATTTTTGCGGTTAGACAAAAACAAAAAAACCTGAAGAAGACCATCTGCCTTGGCAGATAATCCTCTTCAGGTTTTGCCCGCGCATCGCGGTAGCAACCCTCATTCAGCCATTATTGGCCCGCATAAAACAAAAAACCTGATATCGCCCCCAGGAGCAATATCAGGTTTTGCCTGCTGTCGCAGTCACAATCCGTTT (double strand) [PVK055_3347 promoter fragment]”: the binding result is “binds”.
